# Only a part is listed here, and it is no random draw. Some structures show a salt or complex split into parts, the way the source records it. Calls of active or inactive are those of the source. Rule as the data show it: active = inhibition mostly above about 10% (no sharp cut-off); inactive = mostly below about 6.7%.
# Protein sequences, listed by entry. Tags and fused reporters are not part of them.
# UniProt Q9QR71, whole entry: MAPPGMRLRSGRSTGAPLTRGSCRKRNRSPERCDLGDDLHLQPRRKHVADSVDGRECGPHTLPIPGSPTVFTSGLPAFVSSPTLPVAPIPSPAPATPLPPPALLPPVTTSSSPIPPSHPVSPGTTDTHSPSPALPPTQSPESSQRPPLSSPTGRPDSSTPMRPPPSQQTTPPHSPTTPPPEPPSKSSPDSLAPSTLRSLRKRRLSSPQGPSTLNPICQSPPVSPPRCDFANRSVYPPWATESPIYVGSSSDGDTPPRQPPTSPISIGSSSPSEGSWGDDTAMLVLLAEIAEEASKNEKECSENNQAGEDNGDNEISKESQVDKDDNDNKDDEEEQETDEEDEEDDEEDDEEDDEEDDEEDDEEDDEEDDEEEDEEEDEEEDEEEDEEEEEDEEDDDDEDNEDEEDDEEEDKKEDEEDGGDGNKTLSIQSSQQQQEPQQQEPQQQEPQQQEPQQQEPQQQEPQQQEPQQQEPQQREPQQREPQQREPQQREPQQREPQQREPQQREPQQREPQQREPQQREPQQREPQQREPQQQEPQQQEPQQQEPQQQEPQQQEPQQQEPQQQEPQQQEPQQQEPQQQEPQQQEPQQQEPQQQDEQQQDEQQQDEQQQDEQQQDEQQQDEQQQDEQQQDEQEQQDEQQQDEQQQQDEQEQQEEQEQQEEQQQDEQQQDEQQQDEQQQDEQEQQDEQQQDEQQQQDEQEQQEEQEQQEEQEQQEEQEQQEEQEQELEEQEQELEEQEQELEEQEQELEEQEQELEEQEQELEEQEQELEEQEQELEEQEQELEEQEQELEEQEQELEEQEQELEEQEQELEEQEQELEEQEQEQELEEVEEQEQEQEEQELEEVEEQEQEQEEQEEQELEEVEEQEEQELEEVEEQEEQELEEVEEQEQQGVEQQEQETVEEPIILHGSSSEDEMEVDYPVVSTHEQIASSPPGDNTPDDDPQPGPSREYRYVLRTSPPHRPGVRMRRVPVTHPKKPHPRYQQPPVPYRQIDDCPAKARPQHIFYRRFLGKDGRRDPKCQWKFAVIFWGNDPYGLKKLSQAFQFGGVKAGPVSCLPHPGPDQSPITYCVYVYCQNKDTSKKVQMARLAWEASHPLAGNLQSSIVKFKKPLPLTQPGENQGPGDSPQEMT
# Biological target: Protein LANA1 (Human herpesvirus 8 type P (isolate GK18)) (UniProt Q9QR71)
# Assay: blockers of LANA interaction with H2A/H2B – biochemical, FP readout, HTS, primary screen (AID 2629)
# Conditions: cell-free LANA-H2A/H2B peptide, fluorescence polarization; stronger effect = higher value; concentration not given here
row,Compound,inhibition
1,O=[N+]([O-])c1cc([N+](=O)[O-])c(OC2CCCCC2O)c([N+](=O)[O-])c1 (stereo unspecified),inactive: -5.11%
2,CN(C)C(=O)Oc1noc2ccccc12,inactive: -0.167%
3,CP(=O)(Nc1ccccc1)Oc1ccc(F)cc1 (stereo unspecified),inactive: -1.41%
4,O=P1(Nc2nc3ccc(Cl)cc3s2)COc2ccccc2O1 (stereo unspecified),inactive: -0.841%
5,CCOc1ccc(C2=NCC(CBr)S2)cc1 (stereo unspecified),inactive: -0.974%
6,CC(C)(C)C(=O)NC(Sc1ccccc1)C(Cl)(Cl)Cl (stereo unspecified),inactive: 1.72%
7,CC(C)c1ccc(OP(C)(=O)Nc2ccc(SC(F)(F)F)cc2)cc1 (stereo unspecified),inactive: -0.344%
8,CP(=O)(Nc1ccccc1F)Oc1ccccc1 (stereo unspecified),inactive: -2.8%
9,O=C(OCCN1CCN(CCOCc2ccccc2)CC1)C(O)(c1ccccc1)c1ccccc1,inactive: -1.16%
10,C[C@H]1OP(=O)(Oc2ccccc2)C[C@@H]2O[C@@H]21 (stereo partly specified),inactive: 3.73%
11,C[C@@H]1C=CCP(=O)(Oc2ccccc2)O1 (stereo partly specified),inactive: -1.26%
12,CC(=O)c1ccc(N2CC2c2ccncc2)cc1 (stereo unspecified),inactive: -1.94%
13,O=C(OC1CN2CCC1CC2)c1ccc([N+](=O)[O-])cc1 (stereo unspecified),inactive: 10.2%
14,CC(=O)Nc1ccc([As](=O)(O)O)c(O)c1,inactive: 0.623%
15,COc1ccc2c(c1O)-c1c(O)c(OC)cc3c1[C@H](C2)[N+](C)(C)CC3.O=[N+]([O-])c1cc([N+](=O)[O-])c([O-])c([N+](=O)[O-])c1[O-],inactive: 0.368%
16,CC(=O)Nc1ccc(Oc2c([N+](=O)[O-])cc([N+](=O)[O-])cc2[N+](=O)[O-])cc1,inactive: 1.79%
17,CN(C(=O)Cc1ccc(Cl)c(Cl)c1)[C@H]1CCCC[C@H]1N1CCCC1,inactive: -4.66%
18,COc1ccccc1OP(C)(=O)Nc1ccc(Br)cc1 (stereo unspecified),inactive: -5%
19,Cc1ccc(N/C(=N/P(=O)(N2CCOCC2)N2CCOCC2)N2CCOCC2)cc1,inactive: 2.85%
20,NC(=O)c1cc([N+](=O)[O-])cc([N+](=O)[O-])c1N,inactive: 5.09%
21,CN1CCCC(OC(=O)C(c2ccccc2)c2ccccc2)C1 (stereo unspecified),inactive: -0.0688%
22,CN(C)CCOC(=O)C(O)(c1ccccc1)C1CCCC1 (stereo unspecified),inactive: -0.236%
23,Clc1ccc(Cl)c(NC2=NCC(CBr)S2)c1 (stereo unspecified),inactive: -3.27%
24,COc1ccccc1OP(=O)(Nc1ccc(C)cn1)Oc1ccccc1OC,inactive: 2.93%
25,COc1ccc(OP(C)(=O)Nc2ccccn2)cc1 (stereo unspecified),inactive: 0.601%
26,Cc1ccc(OP(=O)(Nc2nccs2)Oc2ccc(C)cc2)cc1,inactive: 4.15%

# Reference: PubChem BioAssay AID2629 (Broad Institute, 2010)
